Source: ChEMBL document CHEMBL1142087 (Antimicrob Agents Chemother, 2007)

Key:
Influenza A virus [1] = experiment: Reduction of lung viral titre in BALB/c mouse infected with influenza A virus (A/duck/Minnesota/1525/1981 (H5N1)) at 20 mg/kg/day, po twice daily for 5 days administered 1 hr after infection measured on day 1 relative to carboxymethyl cellulose
Influenza A virus [2] = experiment: Reduction of lung viral titre in BALB/c mouse infected with influenza A virus (A/duck/Minnesota/1525/1981 (H5N1)) at 100 mg/kg/day, po qid for 5 days administered 1 hr after infection measured on day 1 relative to carboxymethyl cellulose
Influenza A virus [3] = experiment: Reduction of lung viral titre in BALB/c mouse infected with influenza A virus (A/duck/Minnesota/1525/1981 (H5N1)) at 33 mg/kg/day, po qid for 5 days administered 1 hr after infection measured on day 1 relative to carboxymethyl cellulose
Influenza A virus [4] = experiment: Reduction of lung viral titre in BALB/c mouse infected with influenza A virus (A/duck/Minnesota/1525/1981 (H5N1)) at 300 mg/kg/day, po qid for 5 days administered 1 hr after infection measured on day 1 relative to carboxymethyl cellulose

`CCOC(=O)C1=C[C@@H](OC(CC)CC)[C@H](NC(C)=O)[C@@H](N)C1` [OSELTAMIVIR] gave a Log10CCID50/g (Influenza A virus [1]) of 6.1.

Work on `NC(=O)c1nc(F)cnc1O` yielded a Log10CCID50/g (Influenza A virus [2]) of 4.9, a Log10CCID50/g (Influenza A virus [3]) of 5.8 and a Log10CCID50/g (Influenza A virus [4]) of 3.5.
